Measurements reported in PubChem BioAssay AID1224833 (University of Georgia, 2016)

- Purpose: 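Human genes whose knock-down alters rotavirus replication in monkey cells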 (primary screen)
- Cell system: monkey MA104 kidney cells
- Reagents: siRNA pool against human genes, 50 nM
- Time to read-out: 48 h knock-down before infection; read 24 h after infection
- Treatment: infection with rotavirus strain RV3 two days after transfection; infectious dose for this stage not given
- Measurement: 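Rotavirus antigen per well by fluorescent immunoassay, normalised to non-targeting control wells on each plate and given as a standard z-score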
- Direction: z-score vs non-targeting control: higher = more rotavirus replication than with non-targeting control
- Active means: In these data the active calls have z-score vs non-targeting control at about -1 or lower, or at about 1 or higher
- Calls: active = z-score beyond 1 either way; inactive = z-score within 1 of zero
In all, the deposit lists about 12,000 reagents; below is an unselected part. About 5,600 of all reagents (46%) count as active. 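Active calls cover z-scores past 1 in both directions, so they include lowered as well as raised rotavirus replication.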 A number with no mark means an inactive call.

| Target gene | z-score vs non-targeting control |
| --- | --- |
| MSI2 (musashi RNA binding protein 2) | 0.0682 |
| FRY (FRY microtubule binding protein) | 1.4 (active) |
| SDR39U1 (short chain dehydrogenase/reductase family 39U member 1) | -2.08 (active) |
| AVL9 (AVL9 cell migration associated) | -1.41 (active) |
| PENK (proenkephalin) | 2.25 (active) |
| OR6A2 (olfactory receptor family 6 subfamily A member 2) | -0.878 |
| PDCD5 (programmed cell death 5) | -0.121 |
| FAM20C (FAM20C golgi associated secretory pathway kinase) | -1.15 (active) |
| CYYR1 (cysteine and tyrosine rich 1) | -0.819 |
| NSDHL (NAD(P) dependent 3-beta-hydroxysteroid dehydrogenase NSDHL) | -1.06 (active) |
| ZDHHC4 (zDHHC palmitoyltransferase 4) | -0.534 |
| ARIH1 (ariadne RBR E3 ubiquitin protein ligase 1) | 2.95 (active) |
| WDR17 (WD repeat domain 17) | -1.93 (active) |
| KLHL8 (kelch like family member 8) | -0.418 |
| HSPH1 (heat shock protein family H (Hsp110) member 1) | 0.817 |
| IGFL2 (IGF like family member 2) | 0.41 |
| LGALS1 (galectin 1) | -1.69 (active) |
| CEP120 (centrosomal protein 120) | 1.06 (active) |
| CLDN10 (claudin 10) | 0.083 |
| OSBPL3 (oxysterol binding protein like 3) | 0.196 |
| CLPSL2 (colipase like 2) | 0.622 |
| CYTH1 (cytohesin 1) | 0.304 |
| HPCAL4 (hippocalcin like 4) | -0.185 |
| KLHDC4 (kelch domain containing 4) | 1.2 (active) |
| HOXC6 (homeobox C6) | 2.06 (active) |
| CRYBB3 (crystallin beta B3) | 0.0026 |
| VPS33A (VPS33A core subunit of CORVET and HOPS complexes) | 0.389 |
| SCTR (secretin receptor) | -0.692 |
| LIPE (lipase E, hormone sensitive type) | 0.9 |
| KRTAP11-1 (keratin associated protein 11-1) | -1.13 (active) |
| TRMT6 (tRNA methyltransferase 6 non-catalytic subunit) | 0.635 |
| ZC3H11D (zinc finger CCCH-type containing 11D) | -1.67 (active) |
| CCL22 (C-C motif chemokine ligand 22) | 0.42 |
| IL12B (interleukin 12B) | -0.704 |
| IBTK (inhibitor of Bruton tyrosine kinase) | 0.369 |
| SLC30A2 | 0.834 |
| TDP1 (tyrosyl-DNA phosphodiesterase 1) | -0.892 |
| DNAH11 (dynein axonemal heavy chain 11) | -0.924 |
| BSCL2 (BSCL2 lipid droplet biogenesis associated, seipin) | 0.661 |
| PDZD2 (PDZ domain containing 2) | 0.398 |
| RASL12 (RAS like family 12) | 1.48 (active) |
| CFAP157 (cilia and flagella associated protein 157) | 0.51 |
| ATP13A2 (ATPase cation transporting 13A2) | 2.33 (active) |
| GIP (gastric inhibitory polypeptide) | -1.04 (active) |
| TFAP2C (transcription factor AP-2 gamma) | 1.48 (active) |
| MOB3A (MOB kinase activator 3A) | 0.356 |
| PPT1 (palmitoyl-protein thioesterase 1) | 0.728 |
| PXDC1 (PX domain containing 1) | -0.507 |
| TUBD1 (tubulin delta 1) | -2.33 (active) |
| TRAM1L1 (translocation associated membrane protein 1 like 1) | 0.333 |
| PDSS2 (decaprenyl diphosphate synthase subunit 2) | 1.17 (active) |
| IL36B (interleukin 36 beta) | -0.812 |
| IFNA5 (interferon alpha 5) | -0.0755 |
| LSM8 (LSM8 homolog, U6 small nuclear RNA associated) | 0.251 |
| ANGPT4 (angiopoietin 4) | -0.765 |
| THEMIS2 (thymocyte selection associated family member 2) | -0.572 |
| OR2AE1 (olfactory receptor family 2 subfamily AE member 1) | -1.17 (active) |
| ULBP2 (UL16 binding protein 2) | -1.4 (active) |
| TSPAN15 (tetraspanin 15) | -0.445 |
| RANGRF (RAN guanine nucleotide release factor) | -1.11 (active) |
| PHLDA3 (pleckstrin homology like domain family A member 3) | -0.6 |
| RIMS1 (regulating synaptic membrane exocytosis 1) | 1.55 (active) |
| ADAP1 (ArfGAP with dual PH domains 1) | -0.516 |
| TAF2 (TATA-box binding protein associated factor 2) | 1.89 (active) |
| TMEM179 (transmembrane protein 179) | 2.45 (active) |
| H2BC10 (H2B clustered histone 10) | 0.0288 |
| CCDC81 (coiled-coil domain containing 81) | 0.528 |
| PDE8A (phosphodiesterase 8A) | 0.655 |
| ASCC3 (activating signal cointegrator 1 complex subunit 3) | 1.11 (active) |
| ATOH1 (atonal bHLH transcription factor 1) | -1.06 (active) |
| XPO6 (exportin 6) | -1.15 (active) |
| PRR15L (proline rich 15 like) | 1.33 (active) |
| CP (ceruloplasmin) | -1.47 (active) |
| KIF20B (kinesin family member 20B) | -1.65 (active) |
| PPIA (peptidylprolyl isomerase A) | -1.78 (active) |
| ZBTB11 (zinc finger and BTB domain containing 11) | 0.755 |
| SPHAR (retired record) | -0.369 |
| BRD10 (bromodomain containing 10) | 0.481 |
| B4GALNT1 (beta-1,4-N-acetyl-galactosaminyltransferase 1) | -1.55 (active) |
| ETV7 (ETS variant transcription factor 7) | -2.23 (active) |
| PCDHA9 (protocadherin alpha 9) | 0.918 |
| PERP (p53 apoptosis effector related to PMP22) | 0.694 |
| TMEM259 (transmembrane protein 259) | -2.38 (active) |
| AJAP1 (adherens junctions associated protein 1) | -0.869 |
| BAIAP3 (BAI1 associated protein 3) | -0.27 |
| OR51G2 (olfactory receptor family 51 subfamily G member 2) | -0.342 |
| MRC1 (mannose receptor C-type 1) | 0.284 |
| AGGF1 (angiogenic factor with G-patch and FHA domains 1) | 0.102 |
| EPB41 (erythrocyte membrane protein band 4.1) | 0.592 |
| M6PR (mannose-6-phosphate receptor, cation dependent) | -2.31 (active) |
| SAFB (scaffold attachment factor B) | -0.665 |
| ADAMDEC1 (ADAM like decysin 1) | -0.517 |
| TMEM70 (transmembrane protein 70) | 1.3 (active) |
| VSIG2 (V-set and immunoglobulin domain containing 2) | -0.09 |
| HEATR1 (HEAT repeat containing 1) | 0.38 |
| GPR37 (G protein-coupled receptor 37) | 0.685 |
| MAK16 (MAK16 homolog) | 1.6 (active) |
| DSG3 (desmoglein 3) | 0.28 |
| CEP128 (centrosomal protein 128) | 0.147 |
| LHX6 (LIM homeobox 6) | 1.36 (active) |
| PAGE5 (PAGE family member 5) | -1.51 (active) |
| RAMP2 (receptor activity modifying protein 2) | 1.84 (active) |
| IDH3A (isocitrate dehydrogenase (NAD(+)) 3 catalytic subunit alpha) | -0.962 |
| CORO6 (coronin 6) | 1.66 (active) |
| SMNDC1 (survival motor neuron domain containing 1) | -1.56 (active) |
| ACTL6B (actin like 6B) | -1.83 (active) |
| ZNF25 (zinc finger protein 25) | -1.31 (active) |
| CANT1 (calcium activated nucleotidase 1) | 1.89 (active) |
| ZC3H12A (zinc finger CCCH-type containing 12A) | 1.31 (active) |
| LRRC73 (leucine rich repeat containing 73) | -0.0936 |
| FZD7 (frizzled class receptor 7) | -1.53 (active) |
| FGF22 (fibroblast growth factor 22) | -2.84 (active) |
| ADAM9 (ADAM metallopeptidase domain 9) | 1.54 (active) |
| SUMO3 (small ubiquitin like modifier 3) | 0.0753 |
| TRAPPC3 (trafficking protein particle complex subunit 3) | 0.471 |
| TM9SF4 (transmembrane 9 superfamily member 4) | -0.979 |
| FKBPL (FKBP prolyl isomerase like) | 1.3 (active) |
| ZNF420 (zinc finger protein 420) | 1.24 (active) |
| LTBP3 (latent transforming growth factor beta binding protein 3) | 0.0717 |
| RRM2 (ribonucleotide reductase regulatory subunit M2) | 1.8 (active) |
| CPEB4 (cytoplasmic polyadenylation element binding protein 4) | 1.18 (active) |
| LDHAL6A (lactate dehydrogenase A like 6A) | 2.47 (active) |
| SRSF11 (serine and arginine rich splicing factor 11) | 1.32 (active) |
| ZNF831 (zinc finger protein 831) | -0.623 |
| SHOC1 (shortage in chiasmata 1) | 0.0668 |
| TMEM63C (transmembrane protein 63C) | 1.73 (active) |
| OR9G1 (olfactory receptor family 9 subfamily G member 1) | -0.391 |
| DYNC1I1 (dynein cytoplasmic 1 intermediate chain 1) | 3.21 (active) |
| LCN6 (lipocalin 6) | -1.26 (active) |
| CFAP36 (cilia and flagella associated protein 36) | 2.4 (active) |
| WASF2 (WASP family member 2) | -0.534 |
| BCAR3 (BCAR3 adaptor protein, NSP family member) | -2.1 (active) |
| RNF133 (ring finger protein 133) | 1.25 (active) |
| AP3M1 (adaptor related protein complex 3 subunit mu 1) | -0.532 |
| GUCA1C (guanylate cyclase activator 1C) | -1.77 (active) |
| TPM2 (tropomyosin 2) | -2.95 (active) |
| LNPK (lunapark, ER junction formation factor) | -1.39 (active) |
| CCNA2 (cyclin A2) | -1.03 (active) |
| KIF16B (kinesin family member 16B) | -2.34 (active) |
| YTHDC1 (YTH N6-methyladenosine RNA binding protein C1) | 0.156 |

6 successive entries from above, quoted:
| Target gene | z-score vs non-targeting control |
| --- | --- |
| NSDHL (NAD(P) dependent 3-beta-hydroxysteroid dehydrogenase NSDHL) | -1.06 (active) |
| ZDHHC4 (zDHHC palmitoyltransferase 4) | -0.534 |
| ARIH1 (ariadne RBR E3 ubiquitin protein ligase 1) | 2.95 (active) |
| WDR17 (WD repeat domain 17) | -1.93 (active) |
| KLHL8 (kelch like family member 8) | -0.418 |
| HSPH1 (heat shock protein family H (Hsp110) member 1) | 0.817 |
